According to patent US9677053B2, “Laccases for bio-bleaching” (BASF ENZYMES LLC, priority 2006, dated 2017):

B1: BD22449: laccase from Cochiobolus heterostrophus, SEQ ID NO: 2, expressed in Aspergillus niger, tested as culture supernatant (protein, listed as Cochliobolus heterostrophus)
chain: MVSSISRVVTALGLLLPTVTSSVVPHKSLAPRTPEVPWKNTGLFSGHSKRQGYETACNHGPESRGCWIDDFNIDTDMDVEWPDTGKTVKYHLTITNTTGAPDGFERPMFLINGQYPGPTITADWGDVLEITVTNGLENNGTGIHWHGLRQLGTNEQDGVNGITECPIAPGDSKLYRFKATQYGTTWYHSHYSVQYGDGIVGPLIIKGPSTANYDIDLGAFPMTDWFHATTFTVNAAAVHANGPPTADNVLVNGSMTSSFGGKYAETILTPGKSHLLRLMNVGINNYLHVGLDGHQFQVISADFTPIEPFYTDSLVLAVGQRYEVIINATEAVGNYWLRVGTGGNCDGPNANAANIRSIFRYAGAPTEDPDTTGSLPSGCYDEDVVPYAKTTVPQEMPEQLSVGFNPNWTSDVTQNQGLVQWLVNGNPMAVDLEVPTLQSVLDGNVTYGNNRHVFAVDEKHQWQYWVIQQNSSNPPLPHPIHLHGHDFYVLAQVENAVWNGDISTLKTDNPIRRDTADLPAGGYLVLAFESDNPGAWLMHCHIPFHVAAGLGVQFLERESEIKAQDGYAEMHRTCANWQSWRYKYHPNGILFPGDSGLRRRN
B2: BD22865: laccase from Fusarium verticillioides, SEQ ID NO: 4, expressed in Aspergillus niger, tested as culture supernatant (protein)
chain: MALIERVWHACVSIVAWLTMWPTSPSTSYQHPLRPNHPHTHIEDPSPGFPIFHPPPGDHEFLCEYPEMTGFVQCSIPENRECWLRHPDGREFNIHTNYENFAPKGIMRHYTLNITESWYNADGQNFTEAKLFNGEYPGPWLEACWGDTFNITVINSMKRNGTSIHWHGIRQNQTMDMDGVNGITQCPIAPGDSFSYIFNTTQYGTSWYHSHYSVQYADGLQGPITIHGPQSAPYDATKRPLLMTDWSHESAFRLLFPGSQFSNKTILLNGAGNVSHYGYTPTLPIPDNYELYFNKTPTDKPTRPKRYLLRLINTSFDSTLVFSIDNHWLQIVTSDFVPIEPYFNTSVLIGIGQRYNVIVEANPLGGDVNEIPDDGNFWIRTWVADACGIAPGGEGYEKTGILRYNHSDKALPSSQPWVNISKACSDETYTSLRPKIPWYIGPAANAQNGERFNVTFDPNAKNTPEFQEEYPVATFGLQRPGQNFRPLQINYSDPVMFHLDEPRDTYPPKWVVIPEDYTEKEWVYFVLTIEGISARTGAHPIHLHGHDFALLQQEENQTYDPSRLNLKLDNPPRRDVVLLPRNGFVVIAFKADNPGIWLMHCHIARHASEGLAMQVLERQGDSNKLFPVGSPNMIEAERVCKVWETWMDGEKDFFEGDSGI
modifications: Fusarium verticillioides

How the values were obtained:
[1] = TEMPO oxidation, oxygen consumption (OXYTHERM); assay type: biochemical; settings: concluded from TEMPO, violuric acid and HBT oxidation at pH 8
Protocol: Briefly, 50 μL of test culture supernatants isolated as described in Example 2 was incubated with 950 uL TEMPO (1 mM in Britton-Robinson Buffer at pH 8) at 22° C. in an OXYTHERM™ oxygen measurement instrument (Hansatech, England). Oxygen consumption was measured over time according to the manufacturer's instructions.

[2] = thermotolerance, residual activity on ABTS; assay type: biochemical; settings: an hour
Protocol: Laccases BD22449 and BD22865, identified and characterized in Examples 1-5 above were assayed for thermotolerance. Briefly, each laccases was tested at 50° C., 60° C. and 70° C. for 0-60 minutes wherein the residual activity on ABTS was measured. Supernatants from the Aspergillus cultures expressing BD22449 (SEQ ID NO:2) and BD22865 (SEQ ID NO:4) were isolated as described in Example 2. Supernatants were incubated at 50° C., 60° C. or 70° C. for 1 min, 5 min, 10 min, 30 min, and 60 min. For each time point, the oxidation of 2, 2′-azino-bis(3-ethylbenzthiazoline-6-sulfonic acid) (ABTS) by the laccase was measured using an OXYTHERM™ oxygen measurement instrument.

Row | Molecule | redox potential class of laccase [1] | tolerance of 50° C. heat challenge [2] | tolerance of 60° C. heat challenge ([2]; 60° C.)
1 | B1 | medium redox potential | tolerated a 50 °C heat challenge well | unchallenged
2 | B2 | high redox potential | tolerated a 50 °C heat challenge well | –
